The results in this text go back to patent US20220184071A1, “GEPOTIDACIN FOR USE IN THE TREATMENT OF BACTERIAL URINARY TRACT INFECTIONS” (GlaxoSmithKline Intellectual Property Development Limited, priority 2019, published 2022).

Values joined by “and” are separate entries in the source; they are usually repeats but may differ in a detail not shown here. Identical values can stand only once.

One series relates to E. coli. As to the kind of experiment: Phase IIa PK/PD and microbiological response by uropathogen. It is filed as in vivo, human. The following applies: 4 participants with a qualifying E. coli uropathogen; 1500 mg BID oral. How it is done: This phase IIa single center study evaluated the safety, tolerability, pharmacokinetics, and efficacy of oral gepotidacin 1500 mg BID for 5 days in female subjects with acute cystitis. Clean catch mid-stream urine specimens were obtained for quantitative culture by standard methods. Urine samples were taken from all participants pre-treatment (baseline) and at all post-baseline visits. All urine samples were sent to a central laboratory (PPD Global Clinical Laboratories, Highland Heights, Ky., USA) for Gram stain, quantitative culture, pathogen identification and susceptibility testing. See FIG. 1 for participant disposition and study outline.
Susceptibility testing by CLSI broth microdilution and gradient diffusion (fosfomycin only) was conducted (CLSI, 2015, Methods for dilution antimicrobial susceptibility tests for bacteria that grow aerobically; approved standard-tenth edition; and CLSI, 2018. Performance Standards for Antimicrobial Susceptibility Testing; Twenty-seventh Informational Supplement M100-S28). […]
For pharmacokinetic assessments, serial blood and urine samples for the assessment of gepotidacin PK concentrations were collected out to 12 hours post dose (T) following the morning dose on Days 1 and 4. […] PK concentrations of gepotidacin in plasma and urine were measured using a validated LC-MS/MS bio-analytical assay.

In series [1] the test system is qualifying Enterobacteriaceae uropathogens. In words: Phase IIa PK/PD, participants with steady state PK. It is filed as in vivo, human. The following applies: 4 participants, microbiological successes at TOC.

Regarding `O=c1ccc2ncc(=O)n3c2n1C[C@H]3CN1CCC(NCc2cc3c(cn2)OCCC3)CC1` [gepotidacin, (2R)-2-({4-[(3,4-dihydro-2H-pyrano[2,3-c]pyridin-6-ylmethyl)amino]-1-piperidinyl}methyl)-1,2-dihydro-3H,8H-2a,5,8a-triazaacenaphthylene-3,8-dione], in the series on E. coli, the “mean gepotidacin free plasma AUC(0-24)/MIC ratio” value is on record as 37.0 and the “mean gepotidacin urine AUC(0-24)/MIC ratio” value is on record as 15,914. Also, in series [1], the “plasma fAUC24h/MICs ranged” value is 7 to 90.5 and 6.99-90.5; the “urine AUC24h/MICs ranged” value is reported as 1292 to 121,698.
